Data set [1] has as its system T2 cells loaded with pp65495-503. As to the kind of experiment: Chromium release assay of in vitro stimulated splenocytes from immunized transgenic mice, peptide-loaded T2 targets.
Data set [2] is described as follows: Solubility in saline with DMSO. Conditions: physiologic saline with minimal DMSO.

As to VSTIVPYIGPALNIAAANLVPMVATV, the “effect of CpG ss-ODN on CTL response” value in data set [1] (50 nmol peptide alone vs with 25 μg ss-ODN #1826, subcutaneous, compared with KTet830V) was “not as dramatic”. Besides, the peptide-specific responses result in data set [1] (50 nmol subcutaneous alone or with 25 μg CpG ss-ODN, after one immunization) is listed as “easily measured”.
Turning to KSSYIKANSKFIGITEAAANLVPMVATV, the CTL response entry in data set [1] (subcutaneous, 50 or 100 nmol, without CpG ss-ODN adjuvant) was “not able to stimulate a vigorous CTL response”.
Consider `CSCC[C@H](NC(=O)[C@@H]1CCCN1C(=O)[C@@H](NC(=O)[C@H](CC(C)C)NC(=O)[C@H](CC(N)=O)NC(=O)[C@H](C)NC(=O)[C@H](C)NC(=O)[C@H](C)NC(=O)[C@H](CCCCN)NC(=O)[C@H](CC(C)C)NC(=O)[C@@H](NC(=O)[C@H](Cc1c[nH]c2ccccc12)NC(=O)[C@H](C)NC(=O)[C@H](C)NC(=O)[C@@H](NC(=O)[C@H](CC1CCCCC1)NC(=O)[C@H](CCCCN)NC(=O)[C@H](C)NC(=O)[C@H](CO)NC(=O)[C@H](CO)NC(=O)[C@@H](N)CCCCN)C(C)C)[C@@H](C)O)C(C)C)C(=O)N[C@H](C(=O)N[C@@H](C)C(=O)N[C@H](C(=O)N[C@H](C(=O)O)C(C)C)[C@@H](C)O)C(C)C`, for which the solubility result in data set [2] is “favorable solubility”.

The values are drawn from US20040101534A1 (priority 2002, published 2004).
